Results of unrelated studies side by side (data: NIAID ChemDB).

All rows: enzyme or target tests; agent: HIV-1; protein: Reverse transcriptase; measure: IC50

Two numbers with a dash give a range or band. Blank or dashed fields: not listed here. Neighbouring rows are from separate reports. ICn: concentration for n% inhibition.

structure	strain	changes	read by	result
CC(=O)Oc1c(OCC(=O)c2ccc(-c3ccccc3)cc2)ccc2c1C(=O)c1ccccc1C2=O	-	K103N	-	9 µM
CCN1c2ncc(CCOc3ccc(CC(=O)O)c4c3CCCC4)cc2C(=O)N(C)c2ccc(Cl)nc21	-	RT-Y188L	nucleotide incorporation / radiometric	0.1–1 µM
C=CCOc1ccc2c(c1OC(C)=O)C(=O)c1ccccc1C2=O	-	-	-	82 µM
CCOC(=O)N1c2ccc([N+](=O)[O-])cc2C=CC1C#N	-	-	nucleotide incorporation	>50 µM
CCN1c2ncc(CCOc3cccc4c3CNC(=O)N4C)cc2C(=O)Nc2c(C)ccnc21	IIIB	RT-K103N Y181C	nucleotide incorporation / radiometric	>0.1 µM
O=C(CCCCC(=O)Nc1ccccc1C(=O)O)Nc1ccc(Br)cc1	-	-	-	>100 µg/mL
CC(=O)Oc1c(OCC(=O)c2ccc(Br)cc2)ccc2c1C(=O)c1ccccc1C2=O	-	-	-	5 µM
CCN1c2ncc(CCOc3cccc4c3CNC4=O)cc2C(=O)N(C)c2cccnc21	IIIB	-	nucleotide incorporation / radiometric	<0.05 µM
Cc1cc(C)cc(S(=O)(=O)c2[nH]c3ccccc3c2-c2cccc([N+](=O)[O-])c2)c1	-	K103N	RT activity	17 µM
N#CC1C=Cc2ccccc2N1C(=O)Oc1ccc(Cl)cc1	-	-	nucleotide incorporation	>50 µM
CCN1c2ncc(CCOc3ccc(-c4cnc[nH]4)cc3C)cc2C(=O)N(C)c2cccnc21	IIIB	-	nucleotide incorporation / radiometric	<0.05 µM
O=C(O)CN1C(=O)CSC1c1c(Cl)cccc1Cl	-	-	RT activity / absorbance	>100 µM
COc1ccccc1-c1cn(S(=O)(=O)c2ccc3ccccc3c2)c2ccccc12	-	WT	RT activity	88 µM
CCN1c2ncc(CCOc3cccc4c3CN(O)C4=O)cc2C(=O)N(C)c2cccnc21	IIIB	RT-K103N Y181C	nucleotide incorporation / radiometric	>0.1 µM
C=C1CCC[C@H]2[C@](C)(CC3=C(OC)C(=O)C=C(OC)C3=O)[C@@H](C)CC[C@]12C	-	-	nucleotide incorporation	35 µM
CCOC(=O)c1csc(-c2ccc(OCCc3cnc4c(c3)C(=O)N(C)c3cccnc3N4CC)c(C)c2)n1	IIIB	-	nucleotide incorporation / radiometric	<0.05 µM
CC(C)=CCOc1cc(NC(=S)c2ccoc2C)ccc1Cl	IIIB	-	-	0.023 µM
COc1cc(C)cc2c(-c3c(O)cc(O)c4c3C[C@H](C)N[C@H]4C)cc(-c3cc(-c4c(O)cc(O)c5c4C[C@H](C)N[C@H]5C)c4cc(C)cc(OC)c4c3O)c(O)c12	-	-	nucleotide incorporation	1 µM
O=C1CSC(c2ccccc2Cl)N1CCO	-	-	RT activity / absorbance	14.08 µM
COc1ccc2c(c1)C=CC(C#N)N2C(=O)OCC(C)C	-	RT-P236L	nucleotide incorporation	4.7 µM
CCN1c2ncc(CCOc3cccc4[nH]c(=O)n(C)c34)cc2C(=O)N(C)c2cccnc21	IIIB	-	nucleotide incorporation / radiometric	0.05–0.1 µM
O=S(=O)(c1ccccc1)c1c[nH]c2ccccc12	-	K103N	RT activity	81 µM
CCN1c2ncc(CCOc3ccc4c(c3)CNC(=O)N4C)cc2C(=O)N(C)c2cccnc21	IIIB	-	nucleotide incorporation / radiometric	<0.05 µM
CCOC(=O)N1c2ccccc2C=CC1C#N	-	RT-P236L	nucleotide incorporation	5.3 µM
CCN1c2ncc(CCOc3ccc(-c4ccc(O)c(C(=O)O)c4)cc3C)cc2C(=O)N(C)c2cccnc21	IIIB	RT-K103N Y181C	nucleotide incorporation / radiometric	0.05–0.1 µM
CCN1c2ncc(CCOc3ccc(CC(=O)O)c4ccccc34)cc2C(=O)N(C)c2ccc(Cl)nc21	-	RT-Y188L	nucleotide incorporation / radiometric	>1 µM
Cc1nc(N2C(=O)CSC2c2c(Cl)cccc2Cl)nc(C)c1C	-	-	RT activity / absorbance	1.02 µM
N#Cc1cc(Cl)cc(Oc2cc(OCC(=O)c3ccc(Oc4ccc(OCC(=O)O)cc4)cc3)ccc2Cl)c1	-	-	RT activity / ELISA / absorbance	0.36 µM
N#CC1C=Cc2ccccc2N1C(=O)c1ccc(Cl)cc1	-	-	nucleotide incorporation	5.5 µM
CC(C)=CCN1Cc2cccc3[nH]c(=S)n(c23)C[C@@H]1C	-	RT-Y188L	nucleotide incorporation	122.4 µM
O=C(Oc1ccc2c(c1OC(=O)c1ccccc1)C(=O)c1ccccc1C2=O)c1ccccc1	-	K103N	-	28 µM
CCN1c2ncc(CCOc3ccc(C(=O)O)c4c3CCCC4)cc2C(=O)N(C)c2ccc(F)nc21	WT	-	nucleotide incorporation / radiometric	<0.1 µM
N#CC1C=Cc2ccccc2N1C(=O)C1=CC2C=CC=CC2S1	-	-	nucleotide incorporation	>50 µM
CCN1c2ncc(CCOc3cccc4c3CN(C)C(=O)N4C)cc2C(=O)Nc2c(C)ccnc21	IIIB	-	nucleotide incorporation / radiometric	<0.05 µM
O=S(=O)(c1ccc2ccccc2c1)c1c[nH]c2ccccc12	-	WT	RT activity	42 µM
CC(C)=CCOc1cc(NC(=S)c2ccsc2C)ccc1Cl	-	RT-Y188L	-	35 µM
Cc1ccnc2c1NC(=O)c1cc(CCOc3cccc4c3CNC(=O)N4)cnc1N2C1CC1	IIIB	-	nucleotide incorporation / radiometric	<0.05 µM
O=C(Cc1cccc(CC(=O)Nc2ccc(Br)cc2C(=O)O)c1)Nc1ccc(Br)cc1C(=O)O	-	-	-	>100 µg/mL
CCCOC(=O)N1c2ccc([N+](=O)[O-])cc2C=CC1C#N	-	RT-P236L	nucleotide incorporation	12.6 µM
CC(C)=CCOc1cc(NC(=S)c2ccoc2C)ccc1Cl	-	RT-M184V	-	4.2 µM
Cc1c(S(=O)(=O)c2ccccc2)[nH]c2ccccc12	-	WT	RT activity	87 µM
COc1ccc2c(c1)C=CC(C#N)N2C(=O)OC(C)C	-	-	nucleotide incorporation	17.5 µM
CCN1c2ncc(CCOc3ccc(-c4cc(F)c(O)c(F)c4)cc3C)cc2C(=O)N(C)c2cccnc21	IIIB	-	nucleotide incorporation / radiometric	<0.05 µM
CCN1c2ncc(CCOc3ccc(/C=C/C(=O)O)c4ccccc34)cc2C(=O)Nc2c(C)ccnc21	-	RT-K103N Y181C	nucleotide incorporation / radiometric	0.1–1 µM
O=C(CCCCC(=O)Nc1ccc(Br)cc1)Nc1ccccc1	-	-	-	>100 µg/mL
CC(C)=CCN1Cc2cc(Cl)cc3[nH]c(=O)n(c23)C[C@@H]1C	-	RT-L100I	RT activity	31 µM
CC(=O)Oc1c(OCC(=O)c2ccccc2)ccc2c1C(=O)c1ccccc1C2=O	-	Y181C	-	>100 µM

For reference, 3 entries again:

structure,strain,changes,read by,result
O=C(CCCCC(=O)Nc1ccc(Br)cc1)Nc1ccccc1,-,-,-,>100 µg/mL
CCN1c2ncc(CCOc3ccc(C(=O)O)c4c3CCCC4)cc2C(=O)N(C)c2ccc(F)nc21,WT,-,nucleotide incorporation / radiometric,<0.1 µM
CCCOC(=O)N1c2ccc([N+](=O)[O-])cc2C=CC1C#N,-,RT-P236L,nucleotide incorporation,12.6 µM